Here are results for 3 compounds from US20120108501A1, “Protease Inhibitors” (priority 2009, published 2012).

The test system of one data set is HIV-1RF. Description: Cytoprotection in CEM-SS cells infected with HIV-1RF (XTT). As to conditions: Therapeutic Index = TC50/EC50, CEM-SS. The format is cell-based. On the procedure: To evaluate whether the protease inhibitors described herein retain the ability to protect against HIV-1 infection, CEM-SS cells infected with the RF strain of HIV-1 were treated with test compounds for six days, and then cell viability was monitored using the tetrazolium dye XTT. Infection studies were performed and EC50 values were calculated as the protease inhibitor concentration leading to 50% reduction in cell death compared to virus-infected cells without protease inhibitor. TC50 values were calculated as the protease inhibitor concentration leading to 50% cell death in the absence of viral infection. A value for Therapeutic Index (TI) was calculated as TC50/EC50.

In data set [1] the test system is HT/92/599 clinical subtype B HIV-1. The data set can be described thus: HIV-1 reverse transcriptase activity following infection in fresh human PBMCs. The format is cell-based. As to conditions: Therapeutic Index = TC50/EC50, PBMC. The procedure: Fresh human peripheral blood mononuclear cells (PBMCs) obtained from a commercial source were purified following centrifugation using a Ficoll-Hypaque density gradient. Viable cells were induced to proliferate in the presence of PHA-P and recombinant human IL-2 for 72 hours. PBMCs pooled from three donors were cultured with test compounds in the presence of the HT/92/599 clinical subtype B HIV-1 for seven days, followed by measurement of reverse transcriptase activity in cell supernatants using a radioactive incorporation polymerization assay. […] Incorporation of TTP into DNA was monitored by spotting the reaction mixture onto a DEAE filter mat, followed by washes with 5% phosphate buffer, distilled water, and 70% ethanol, and subsequent drying of the mat. Radioactivity was measured using a Wallac 1450 Microbeta Trilux liquid scintillation counter using Opti-Fluor O. Test compound-associated toxicity was measured in PBMCs cultured for seven days in the absence of virus using XTT reagent. EC50 and EC90 values were calculated as the protease inhibitor concentration leading to 50% and 90% reduction in […], respectively, compared to virus-infected cells without protease inhibitor. TC50 values were calculated as the protease inhibitor concentration leading to 50% cell death in the absence of viral infection. A value for Therapeutic Index (TI) was calculated as TC50/EC50.

`CCCCCCCCCCCCCCCCOCC(COP(=O)(O)OC(CN(Cc1ccc(-c2ccccn2)cc1)NC(=O)C(NC(=O)OC)C(C)(C)C)C(Cc1ccccc1)NC(=O)C(NC(=O)OCCOCCOCCOC)C(C)(C)C)OC` (centres unmarked) [mPEG3-Atazanavir-monophospholipid]: the figures for the TI (in the data set on HIV-1RF; in data set [1]) were 40.8 and 45.05, respectively.

Consider `CCCCCCCCCCCCCCCCOCC(COP(=O)(O)OC(CN(Cc1ccc(-c2ccccn2)cc1)NC(=O)C(NC(=O)OC)C(C)(C)C)C(Cc1ccccc1)NC(=O)C(NC(=O)OCCOCCOCCOCCOCCOC)C(C)(C)C)OC` (centres unmarked) [mPEG5-Atazanavir-monophospholipid], for which, in data set [1], the TI was 1.39.

For `CCCCCCCCCCCCCCCCOCC(COP(=O)(O)OC(CN(Cc1ccc(-c2ccccn2)cc1)NC(=O)C(NC(=O)OC)C(C)(C)C)C(Cc1ccccc1)NC(=O)C(NC(=O)OCCOCCOCCOCCOCCOCCOC)C(C)(C)C)OC` (centres unmarked) [mPEG6-Atazanavir-monophospholipid, mPEG6-atazanavir monophospholipid], the TI in the data set on HIV-1RF came to 0.9; in data set [1], 3.03.
